{"source": "PubChem BioAssay AID624099 (ICCB-Longwood, 2012)", "assay": "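Human genes that papillomavirus E2 requires to repress the HPV18 LCR promoter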 (primary screen)", "system": "human C33A cervical carcinoma cells (HPV-negative) stably expressing BPV1 E2 and an HPV18 LCR luciferase reporter", "reagents": "siRNA pool against human genes, 40 nM", "duration": "72 h", "detection": "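HPV18 LCR reporter light per well, converted to plate-wise z-scores that exclude control wells, and averaged over triplicate plates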", "direction": "mean z-score and z-score: higher = stronger reporter signal, weaker E2 silencing", "call rule": "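Mean z ≥ 2 together with z ≥ 2 in two or more of the three replicates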", "note": "In all, the deposit lists about 21,000 reagents; below is a random part of them. Of all reagents, 497 (2.4%) were called active. 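Higher z means weaker E2 silencing; only reporter increases were scored, and knock-downs that hurt cell survival may mask genuine repressor factors.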 Unmarked entries are inactive."}
{"gene": "CCNB2 (GeneID 9133)", "PubChem SID": "SID56478568", "mean z-score": 0.25, "z-score, replicate A": 0.25, "z-score, replicate B": 0.28, "z-score, replicate C": 0.21}
{"gene": "RASEF (GeneID 158158)", "PubChem SID": "SID134320747", "mean z-score": -0.08, "z-score, replicate A": 0.23, "z-score, replicate B": -0.12, "z-score, replicate C": -0.34}
{"gene": "RPS3AP49 (GeneID 400652)", "PubChem SID": "SID134328874", "mean z-score": -3.17, "z-score, replicate A": -3.04, "z-score, replicate B": -3.33, "z-score, replicate C": -3.14}
{"gene": "CASQ2 (GeneID 845)", "PubChem SID": "SID134315582", "mean z-score": -0.11, "z-score, replicate A": -0.23, "z-score, replicate B": -0.02, "z-score, replicate C": -0.1}
{"gene": "LOC387917 (retired record) (GeneID 387917)", "PubChem SID": "SID134328437", "mean z-score": 0.26, "z-score, replicate A": 0.36, "z-score, replicate B": 0.31, "z-score, replicate C": 0.12}
{"gene": "TMEM198 (GeneID 130612)", "PubChem SID": "SID134325617", "mean z-score": 0.37, "z-score, replicate A": 0.25, "z-score, replicate B": 0.49, "z-score, replicate C": 0.38}
{"gene": "LHX1 (GeneID 3975)", "PubChem SID": "SID134316415", "mean z-score": 0.37, "z-score, replicate A": 0.31, "z-score, replicate B": 0.17, "z-score, replicate C": 0.63}
{"gene": "RGS17 (GeneID 26575)", "PubChem SID": "SID134314246", "mean z-score": -0.28, "z-score, replicate A": -0.26, "z-score, replicate B": -0.05, "z-score, replicate C": -0.53}
{"gene": "LOC346910 (retired record) (GeneID 346910)", "PubChem SID": "SID134326388", "mean z-score": -1.41, "z-score, replicate A": -1.45, "z-score, replicate B": -1.56, "z-score, replicate C": -1.21}
{"gene": "UBASH3B (GeneID 84959)", "PubChem SID": "SID134313400", "mean z-score": 0.63, "z-score, replicate A": 0.59, "z-score, replicate B": 0.5, "z-score, replicate C": 0.8}
{"gene": "G6PC1 (GeneID 2538)", "PubChem SID": "SID134315401", "mean z-score": 0.91, "z-score, replicate A": 1, "z-score, replicate B": 0.85, "z-score, replicate C": 0.87}
{"gene": "CSGALNACT2 (GeneID 55454)", "PubChem SID": "SID134319956", "mean z-score": -0.14, "z-score, replicate A": 0.1, "z-score, replicate B": -0.23, "z-score, replicate C": -0.3}
{"gene": "CACNA1D (GeneID 776)", "PubChem SID": "SID134311543", "mean z-score": 0, "z-score, replicate A": -0.37, "z-score, replicate B": 0.08, "z-score, replicate C": 0.29}
{"gene": "DENND4C (GeneID 55667)", "PubChem SID": "SID134319574", "mean z-score": -0.44, "z-score, replicate A": -0.33, "z-score, replicate B": -0.55, "z-score, replicate C": -0.45}
{"gene": "HMCES (GeneID 56941)", "PubChem SID": "SID134324052", "mean z-score": 0.6, "z-score, replicate A": 0.36, "z-score, replicate B": 0.69, "z-score, replicate C": 0.76}
{"gene": "PNMA3 (GeneID 29944)", "PubChem SID": "SID134324138", "mean z-score": 0.78, "z-score, replicate A": 0.58, "z-score, replicate B": 0.58, "z-score, replicate C": 1.18}
{"gene": "LINC00900 (GeneID 283143)", "PubChem SID": "SID134328234", "mean z-score": 0.01, "z-score, replicate A": -0.19, "z-score, replicate B": 0.18, "z-score, replicate C": 0.03}
{"gene": "ABHD13 (GeneID 84945)", "PubChem SID": "SID134311301", "mean z-score": 0.65, "z-score, replicate A": 0.68, "z-score, replicate B": 0.68, "z-score, replicate C": 0.58}
{"gene": "SLC22A3 (GeneID 6581)", "PubChem SID": "SID134312500", "mean z-score": -0.99, "z-score, replicate A": -0.86, "z-score, replicate B": -1.01, "z-score, replicate C": -1.1}
{"gene": "SIGLEC9 (GeneID 27180)", "PubChem SID": "SID134317092", "mean z-score": -0.83, "z-score, replicate A": -0.65, "z-score, replicate B": -0.71, "z-score, replicate C": -1.13}
{"gene": "EXT2 (GeneID 2132)", "PubChem SID": "SID134315395", "mean z-score": -0.68, "z-score, replicate A": -0.96, "z-score, replicate B": -0.59, "z-score, replicate C": -0.49}

3 consecutive records from above:
{"gene": "G6PC1 (GeneID 2538)", "PubChem SID": "SID134315401", "mean z-score": 0.91, "z-score, replicate A": 1, "z-score, replicate B": 0.85, "z-score, replicate C": 0.87}
{"gene": "CSGALNACT2 (GeneID 55454)", "PubChem SID": "SID134319956", "mean z-score": -0.14, "z-score, replicate A": 0.1, "z-score, replicate B": -0.23, "z-score, replicate C": -0.3}
{"gene": "CACNA1D (GeneID 776)", "PubChem SID": "SID134311543", "mean z-score": 0, "z-score, replicate A": -0.37, "z-score, replicate B": 0.08, "z-score, replicate C": 0.29}
